Anti-infective test results gathered from many reports (values: NIAID ChemDB through PubChem).

Common to all: growth or infection tests; species: HIV-1

An empty or dashed field is not shown. ECn is the concentration giving n% inhibition of infection, replication or growth. Conditions beyond the fields shown may differ between rows. Two numbers with a dash give a range or band.

structure,mutations,strain,conditions,endpoint,method,cell line,result
S=C(NCCc1cccs1)Nc1ccc(Br)cn1,,IIIB,,EC50,p24,PBMC,0.03 µM
CCO[C@H]1C[C@H](n2cc(C)c(=O)[nH]c2=O)O[C@@H]1COP(=O)(OCC(Cl)(Cl)Cl)OCC(Cl)(Cl)Cl,,RF,,EC50,p24 / ELISA,MT-2,30 µM
Nc1ncnc2c1ncn2CCOCP(=O)(O)O,,IIIB,,EC50,syncytia,CEM,1.5 µg/mL
C=CCN(C(=O)OCc1ccc([N+](=O)[O-])cc1)C1CCN(CCC(CO)(CN(C)S(=O)(=O)c2ccccc2)c2ccccc2)CC1,,YU-2 (M-tropic),,EC95,p24,PBMC,≤0.008 µM
Cc1cn([C@H]2C[C@H](N=[N+]=[N-])[C@@H](CO)O2)c(=O)[nH]c1=O,,LAI,,EC50,RT activity,CEM + CEM-SS,0.014 µM
CCc1cc(NCc2nc3c(Cl)ccc(Cl)c3o2)c(=O)[nH]c1C,,IIIB,,EC95,p24 / ELISA,H9,0.2 µM
CC(C)Nc1cccnc1N1CCN(C(=O)c2cc3cc(NS(C)(=O)=O)ccc3[nH]2)CC1,RT-Y181C,NRTI resistant (RT Y181C) A17,,EC50,p24,PBMC,>100 µM
C=C(C)[C@]12C[C@@H](COC(=O)c3ccccc3)[C@@]34OC5(O[C@@H]1[C@@H]3[C@@H]1O[C@]1(CO)[C@@H](O)[C@@]1(O)[C@H]4[C@H]([C@H](C)[C@@H]1OC(=O)c1ccccc1)[C@H](C)CCCCCC[C@H]5O)O2,,NL4-3,,EC50,p24 / ELISA,MT-4,0.000061 µM
Cc1ccc(-c2ccc3c(c2)C=C(C(=O)Nc2ccc(C[N+](C)(C)C4CCOCC4)cc2)CCC3)cc1,,JR-FL,,EC50,β-galactosidase,MAGI + MAGI-CCR5,0.0014 µM
Nc1ncnc2c1ncn2[C@@H]1O[C@@]2(CO)CO[C@@H]1C2,,IIIB,,EC50,antigen,MT-4,>300 µM
Cc1ccc(-c2ccc3c(c2)C=C(C(=O)Nc2ccc(C[N+](C)(C)CCCO)cc2)CCO3)cc1,,JR-FL,,EC50,β-galactosidase,MAGI + MAGI-CCR5,0.014 µM
C=C[C@@]1(CO)CO[C@H](n2ccc(=O)[nH]c2=O)C1,,,,EC50,,MT-4,17.3 µg/mL
Cc1ccc(NC(=S)N[C@H](C)c2cccc3ccccc23)nc1,RT-K103N Y181C,A17V(RT-K103N Y181C),,EC50,p24,PBMC,0.543 µM
CCc1cc(NCc2nc3ccccc3o2)c(=O)[nH]c1C,,IIIB,,EC50,p24 / ELISA,MT-4,<0.2 µM
Cc1ccc(-c2ccc3c(c2)C=C(C(=O)Nc2ccc(C[N+](C)(C)C4CCSCC4)cc2)CCO3)cc1,,JR-FL,,EC50,β-galactosidase,MAGI + MAGI-CCR5,0.006 µM
CCn1nc(Cc2ccc(OC(F)F)cc2)cc1C1CCN(C[C@H]2CN([C@@H](C(=O)O)C(C)C)C[C@@H]2c2cccc(F)c2)CC1,,BaL,,EC90,β-galactosidase,HeLa,<0.00014 µM
COC(=O)C(C)NP(=O)(OCC12CO[C@@H]([C@H](n3cnc4c(N)ncnc43)O1)[C@@H]2N=[N+]=[N-])Oc1ccccc1,,IIIB,,EC50,antigen,MT-4,>300 µM
Cc1cn([C@H]2C[C@H](N=[N+]=[N-])[C@@H](CO)O2)c(=O)[nH]c1=O,,C081590,,EC50,p24,PBMC,0.01 µM
CCC(CC)[N+](C)(C)Cc1ccc(NC(=O)C2=Cc3cc(-c4ccc(C)cc4)ccc3OCC2)cc1,,JR-FL,,EC50,β-galactosidase,MAGI + MAGI-CCR5,0.0051 µM
Cc1cn([C@H]2C[C@H](F)[C@@H](CO)O2)c(=O)[nH]c1=O,,720,,EC50,ELISA,PBMC,0.004 µM
Nc1nc2c(ncn2CCOCP(=O)(O)O)c(=O)[nH]1,,IIIB,,EC50,MTT,MT-4,0.19 µM
CC[C@H](C)[C@H](C(=O)O)N1C[C@H](CN2CCC(c3cc(Cc4ccc(C(F)(F)F)cc4)nn3CC)CC2)[C@@H](c2cccc(F)c2)C1,,BaL,,EC90,β-galactosidase,HeLa,<0.00014 µM
C=CCN(C(=O)OCc1ccc([N+](=O)[O-])cc1)C1CCN(CCC(CN(C)S(=O)(=O)c2ccccc2)c2ccccc2)CC1,,YU-2 (M-tropic),,EC50,p24,PBMC,<0.2 µM
Cc1ccc(-c2ccc3c(c2)C=C(C(=O)Nc2ccc(C[N+]4(C)CCCCC4)cc2)CCO3)cc1,,JR-FL,,EC50,β-galactosidase,MAGI + MAGI-CCR5,0.045 µM
Cc1cn([C@H]2C[C@H](N=[N+]=[N-])[C@@H](CO)O2)c(=O)[nH]c1=O,,IIIB,,EC50,p24 / ELISA,MT-4,<0.025 µM
C=C[C@@]1(CO)CO[C@@H](n2ccc(=O)[nH]c2=O)C1,,,,EC50,,MT-4,78.9 µg/mL
Cn1c2ccccc2c2c1cc(C#N)c(=O)n2-c1ccc([N+](=O)[O-])cc1,,HXB2,,EC50,,MT-2,54.5 µM
Cc1ccnc2c1NC(=O)c1cccnc1N2C1CC1,RT-L100I,,,EC50,cytopathic effect / MTT,MT-4,0.316 µM
CC[C@H](C)[C@H](C(=O)O)N1C[C@H](CN2CCC(c3cc(Cc4ccc(OC(F)F)cc4)nn3CC)CC2)[C@@H](c2cccc(F)c2)C1,,BaL,50% human serum,EC50,β-galactosidase,HeLa,<0.011 µM
CN(CC(C)(CCN1CCC(N(CC(O)CO)C(=O)OCc2ccccc2)CC1)c1ccccc1)S(=O)(=O)c1ccccc1,,YU-2 (M-tropic),,EC95,p24,PBMC,>6.3 µM
CC[C@@H](C)[C@H](C(=O)O)N1C[C@H](CN2CCC(c3cc(Cc4cccc5ccccc45)nn3CC)CC2)[C@@H](c2cccc(F)c2)C1,,BaL,50% human serum,EC90,β-galactosidase,HeLa,0.033 µM
Cc1cn([C@H]2C[C@H](OS(C)(=O)=O)[C@@H](COP(=O)(OCC(Cl)(Cl)Cl)OCC(Cl)(Cl)Cl)O2)c(=O)[nH]c1=O,,RF,,EC50,p24 / ELISA,MT-2,45 µM
O=Nc1ccc2oc(=O)ccc2c1,,LAV,,EC50,ELISA,PBL,<1 µM
C[C@H](Cn1cnc2c(N)ncnc21)OCP(=O)(O)O,RT-A62V V75I F77L Q151M M184V,Clinical isolate HA20.17,,EC50,syncytia,CEM,12.5 µg/mL
Cc1cccc(NC(=S)N[C@H](C)c2cccc3ccccc23)n1,,IIIB,,EC50,p24,PBMC,0.004 µM
O=c1[nH]c(=O)n([C@H]2C=C[C@@H](CO)O2)cc1C#CCOC1CCCCO1,,IIIB,,EC50,RT activity,MT-4,>100 µM
Cc1c(N)nc([C@H](CC(N)=O)NC[C@H](N)C(N)=O)nc1C(=O)N[C@H](C(=O)N[C@H](C)[C@@H](O)[C@H](C)C(=O)N[C@H](C(=O)NCCc1nc(-c2nc(C(=O)NCCC[S+](C)C)cs2)cs1)[C@@H](C)O)C(O[C@@H]1O[C@@H](CO)[C@@H](O)[C@H](O)[C@@H]1O[C@H]1O[C@H](CO)[C@@H](O)[C@H](OC(N)=O)[C@@H]1O)c1cnc[nH]1,,BaL,,EC50,p24,PBL,0.64 µM
Nc1ncnc2c1ncn2[C@@H]1C[C@H](OCP(=O)(O)O)CC1(F)F,,LAI,,EC90,RT activity,PBMC,90 µM
Nc1nc2c(ncn2[C@H]2CO[C@@H](CO)O2)c(=O)[nH]1,,,,EC90,,,15 µM
Cc1cn([C@@H]2O[C@@]3(CO)CO[C@@H]2[C@@H]3N=[N+]=[N-])c(=O)[nH]c1=O,,IIIB,,EC50,antigen,MT-4,>300 µM
O=C(O)P(=O)(O)O,,III,,EC50,RT activity,H9,<132 µM
CSC[C@H](NC(=O)COc1cccc2cnccc12)C(=O)N[C@@H](Cc1ccccc1)[C@H](O)C(=O)N1CSC(C)(C)[C@H]1C(=O)NC(C)(C)C,,IIIB,,EC50,cytopathic effect,CEM + CEM-SS,0.006 µM
CC(C)=CCC[C@@H](C)C1CC[C@]2(C)CC=C(C=O)C1(C=O)[C@@H]2O,,Subtype B isolate BR48,,EC50,p24,PM1,40 µg/mL
Nc1nc2c(ncn2[C@@H]2C[C@H](OCP(=O)(O)O)CC2(F)F)c(=O)[nH]1,,LAI,,EC50,RT activity,PBMC,43 µM
CC(C)=CCN1c2cc(Cl)cc3[nH]c(=S)n(c23)C[C@@H]1C,RT-K70R K103N,,,EC95,,MT-4,1.5 µM
CCc1cc(NCc2nc3c(Cl)ccc(Cl)c3o2)c(=O)[nH]c1C,,IIIB,,EC50,p24,MT-4,0.1 µM
CC(C)n1nc(-c2ccc3oc(N)nc3c2)c2c(N)ncnc21,,HXB2,,EC50,p24 / ELISA,PBL,0.038 µM
C[C@H](COc1cc(N)nc(N)n1)OCP(=O)(O)O,RT-K65R S68G T69I V75T Q151M,Clinical isolate DE434.4,,EC50,syncytia,CEM,≥20 µg/mL
C[C@@H](NC(=S)Nc1ccc(Cl)cn1)c1cccc2ccccc12,RT-L74V V106A T215Y,RT multidrug-resistant (L74V V106A T215Y),,EC50,p24,PBMC,0.001 µM
O=c1[nH]c(=O)n([C@H]2C=C[C@@H](CO)O2)cc1C#CCO,,IIIB,,EC50,RT activity,MT-4,>100 µM
CC[C@@H](C)[C@H](C(=O)O)N1C[C@H](CN2CCC(c3cc(Cc4ccc(C(F)(F)F)cc4)nn3CC)CC2)[C@@H](c2cccc(F)c2)C1,,BaL,,EC50,β-galactosidase,HeLa,<0.0004 µM
Nc1nc2c(ncn2COCCO)c(=O)[nH]1,T69N,CXCR4-tropic HIV pseudovirus,,EC50,GFP,PHA-activated CD4+ lymphoblasts,50 µM
Nc1ccn([C@H]2C=C[C@@H](CO)O2)c(=O)n1,RT-V75T 184V,HXB2,,EC50,plaque count,CD4+HELA + HeLa,1 µM
C=C(C)[C@]12C[C@@H](COC(C)=O)[C@@]34OC5(O[C@@H]1[C@@H]3[C@@H]1O[C@]1(CO)[C@@H](O)[C@@]1(O)[C@H]4[C@H]([C@H](C)[C@@H]1OC(=O)c1ccccc1)[C@H](C)CC(OC(=O)c1ccccc1)C(OC(=O)c1ccccc1)CCC[C@H]5O)O2,,NL4-3,,EC50,p24 / ELISA,MT-4,0.00016 µM
O=c1[nH]c(=O)n([C@H]2C=C[C@@H](CO)O2)cc1C#CCCCCO,,LAI,,EC50,RT activity,CEM + CEM-SS,50 µM
CC(=O)O[C@H]1C[C@H](n2cc(C)c(=O)[nH]c2=O)O[C@@H]1COP(=O)(OCC(Cl)(Cl)Cl)OCC(Cl)(Cl)Cl,,RF,,EC50,p24 / ELISA,C8166,35 µM
C[C@H](Cn1cnc2c(=O)[nH]c(N)nc21)OCP(=O)(O)O,,IIIB,,EC50,MTT,MT-4,4.5 µM
C[N+]1(Cc2ccc(NC(=O)C3=Cc4cc(-c5ccccc5)ccc4CC3)cc2)CCCC1,,JR-FL,,EC50,β-galactosidase,MAGI + MAGI-CCR5,1.1 µM
COC(=O)P(=S)(OC)OC[C@@H]1CC[C@H](n2cnc3c(N)ncnc32)O1,,,,EC50,p24,,0.09–23 µM
C=CCN(C(=O)OCc1ccc([N+](=O)[O-])cc1)C1CCN(CC[C@](C)(CN(C)S(=O)(=O)c2ccccc2)c2ccccc2)CC1,,YU-2 (M-tropic),,EC50,p24,PBMC,<0.008 µM
Nc1nc(N)c2ncn([C@H]3CC[C@@H](CO)O3)c2n1,,,,EC50,,,2.1 µM
CCOP(=O)(CO[C@H]1C[C@@H](n2cnc3c(Cl)nc(N)nc32)C(F)(F)C1)OCC,,LAI,,EC50,RT activity,PBMC,68 µM
C=CCN(C(=O)OCc1ccccc1)C1CCN(CC[C@](CO)(CN(C)S(=O)(=O)c2ccccc2)c2ccccc2)CC1,,YU-2 (M-tropic),,EC95,p24,PBMC,~0.055 µM
Cc1cn([C@H]2C[C@H](OS(C)(=O)=O)[C@@H](CO)O2)c(=O)[nH]c1=O,,RF,,EC50,p24 / ELISA,C8166,>100 µM
CCOc1ccc(Cc2cc(C3CCN(C[C@H]4CN([C@@H](C(=O)O)C5CCCCC5)C[C@@H]4c4cccc(F)c4)CC3)n(CC)n2)cc1,,BaL,50% human serum,EC90,β-galactosidase,HeLa,0.033 µM
Cc1cc(C#N)cc(C)c1Oc1nc(Nc2ccc(C#N)cc2)nc(N)c1Br,Lu164,NL4-3,,EC50,luciferase / RT activity,MT-4,0.00012 µM
Cc1cn([C@H]2C=C[C@@H](CO)O2)c(=O)[nH]c1=O,,HXBT (P-0),,EC50,,MT-4,0.5 µM
C=CCN(C(=O)OCc1ccccc1)C1CCN(CC[C@](C)(CN(C)S(=O)(=O)c2ccccc2)c2ccccc2)CC1,,YU-2 (M-tropic),,EC50,p24,PBMC,<0.075 µM
CCOc1ccc(Cc2cc(C3CCN(C[C@H]4CN([C@@H](C(=O)O)C(C)(C)C)C[C@@H]4c4cccc(F)c4)CC3)n(CC)n2)cc1F,,BaL,50% human serum,EC90,β-galactosidase,HeLa,0.011 µM
Cc1cn([C@@H]2O[C@H](COP3(=O)OCc4ccccc4O3)[C@@]3(N=[N+]=[N-])CO[C@@H]23)c(=O)[nH]c1=O,,IIIB,,EC50,antigen,MT-4,>300 µM
CCOc1ccc(Cc2cc(C3CCN(C[C@H]4CN([C@@H](C(=O)O)[C@@H](C)CC)C[C@@H]4c4cccc(F)c4)CC3)n(CC)n2)cc1F,,BaL,50% human serum,EC50,β-galactosidase,HeLa,<0.011 µM
Cc1csc(NC(=S)N[C@H](C)c2cccc3ccccc23)n1,,IIIB,,EC50,p24,PBMC,0.001 µM
Cc1cc(-c2cccc(C#N)c2)cc(C)c1Nc1ccnc(Nc2ccc(C#N)cc2)n1,Y188L RT mutation,,,EC50,MTT,MT-4,>9.2 µM
CC[C@H](C)[C@H](C(=O)O)N1C[C@H](CN2CCC(c3cc(Cc4ccc(OC)c(OC)c4)nn3CC)CC2)[C@@H](c2cccc(F)c2)C1,,BaL,50% human serum,EC50,p24,PBMC,<0.028 µM